According to PubChem BioAssay AID504834 (National Center for Advancing Translational Sciences (NCATS), 2011):
This is a selection; strong and weak results do not stand in their true shares. Inconclusive results are not listed. A call without a number means that no potency is given here. Activity calls are given as the source filed them. The call rests on the fitted dose curve; in most records, active means well fitted inhibition curve with a large enough effect; inconclusive means small, poorly fitted or top-dose-only effect, or another doubt; inactive means no such curve, though single readings can be large or run the other way.

Experiment: Primary qHTS for delayed death inhibitors of the malarial parasite plastid, 96 hour incubation
Details: P. falciparum luciferase reporter growth; series mostly up to 28.7 µM
Potency means the concentration at half of the fitted maximal effect.

**Q.** With `O=C(OC1CN2CCC1CC2)C12CC3CC(CC(C3)C1)C2` (stereo unspecified) as the molecule, how does the Potency read?
**A.** inactive

**Q.** With `Cc1cc(=O)[nH]c(N[N+](=O)[O-])n1` as the molecule, how does the Potency read?
**A.** inactive

**Q.** With `Cc1c2c(nc3ccccc13)SC(C(Cl)Cl)C2` (stereo unspecified) as the molecule, how does the Potency read?
**A.** inactive

**Q.** Which Potency does the source give for `CC(C)NC(=O)NP(=O)(Oc1ccccc1)Oc1ccccc1` here?
**A.** inactive

**Q.** For `O=[N+]([O-])c1cc([N+](=O)[O-])c(-c2ccn[nH]2)s1`, which Potency is on record?
**A.** inactive

**Q.** With `CC(C)c1ccc(OP(=O)(Nc2ccccn2)Oc2ccccc2F)cc1` (stereo unspecified) as the molecule, how does the Potency read?
**A.** inactive

**Q.** With `ClCCSc1nnc(-c2cccnc2)o1` as the molecule, how does the Potency read?
**A.** inactive

**Q.** With `Cc1ccc2nc3c(c(C)c2c1)CC(C(Cl)Cl)S3` (stereo unspecified) as the molecule, how does the Potency read?
**A.** inactive

**Q.** For `Cc1ccc(OP(=O)(Nc2ccc([N+](=O)[O-])cn2)Oc2ccc(C)cc2)cc1`, which Potency is on record?
**A.** inactive

**Q.** For `O=[As](O)(c1ccc(O)cc1)c1ccccc1O`, which Potency is on record?
**A.** active: 3.7 µM

**Q.** With `C[As](=O)(O)c1cccc(C(=O)O)c1` as the molecule, how does the Potency read?
**A.** inactive

**Q.** For `O=[N+]([O-])c1ccc2c(c1)nnn2O`, which Potency is on record?
**A.** inactive

**Q.** For `N#CCCN(C(=O)COC(=O)C(O)(c1ccccc1)c1ccccc1)c1ccc(F)cc1`, which Potency is on record?
**A.** inactive

**Q.** Which Potency does the source give for `CCOP1(=S)c2c(C)nn(CCC#N)c2N=C(c2ccc(F)cc2)N1C` (stereo unspecified) here?
**A.** inactive

**Q.** Which Potency does the source give for `NC(=O)Nc1ccc([As](=O)(O)O)cc1` here?
**A.** active: 9.53 µM

**Q.** Which Potency does the source give for `O=C(O)COc1ccc([As](=O)(O)O)cc1[N+](=O)[O-]` here?
**A.** inactive

**Q.** For `Nc1ccccc1[As](=O)(O)c1ccccc1`, which Potency is on record?
**A.** active: 14.7 µM

**Q.** For `CCOP1(=S)c2c(C)nn(CCC#N)c2N=C(c2ccccc2F)N1C` (stereo unspecified), which Potency is on record?
**A.** inactive

**Q.** Which Potency does the source give for `O=P(Nc1nccs1)(Oc1ccccc1)Oc1ccccc1` here?
**A.** inactive

**Q.** For `O=P(Nc1nccs1)(c1ccccc1)c1nc2ccccc2s1` (stereo unspecified), which Potency is on record?
**A.** inactive

**Q.** With `COc1cc(C2NCCC3(OCCO3)C2(C)C)cc(OC)c1OC` (stereo unspecified) as the molecule, how does the Potency read?
**A.** inactive

**Q.** Which Potency does the source give for `CCOP(=O)(Nc1cccc2ccccc12)OCC` here?
**A.** inactive

**Q.** For `Nc1cccc2c([As](=O)(O)O)cccc12`, which Potency is on record?
**A.** active: 2.08 µM

**Q.** Which Potency does the source give for `Cc1cccc(OCC(=O)OC2CN3CCC2CC3)c1` (stereo unspecified) here?
**A.** inactive

**Q.** For `O=[As](O)(O)c1cccnc1`, which Potency is on record?
**A.** active: 10.4 µM

**Q.** Which Potency does the source give for `CS(=O)(=O)c1ccc(Cl)c(NC(=O)COC(=O)C(O)(c2ccccc2)c2ccccc2)c1` here?
**A.** inactive

**Q.** For `O=C(OC1CN2CCC1CC2)c1ccc(Cl)cc1` (stereo unspecified), which Potency is on record?
**A.** inactive

**Q.** For `O=[As](O)(c1ccccc1Br)c1ccccc1Br`, which Potency is on record?
**A.** inactive

**Q.** Which Potency does the source give for `C=C(C=O)CC1CC(O)[C@]2(C)OC3CC4OC5C[C@]6(C)O[C@]7(C)CCC8OC9C[C@]%10(C)OC%11C(C)=CC(=O)OC%11CC%10OC9C[C@@H](C)C8OC7CC6O[C@]5(C)CC5OC5C4OC3CC2O1` (stereo partly specified) here?
**A.** active: 4.15 µM

**Q.** Which Potency does the source give for `CC(C)/C=N\N=C(\N)N[N+](=O)[O-]` here?
**A.** inactive

**Q.** With `COc1ccccc1CNC(=O)COC(=O)C(O)(c1ccccc1)c1ccccc1` as the molecule, how does the Potency read?
**A.** inactive

**Q.** With `Clc1n[nH]nc1-c1nn[nH][15n]1` as the molecule, how does the Potency read?
**A.** inactive

**Q.** For `CC(C)(C)C(=O)NC(Sc1ncccn1)C(Cl)(Cl)Cl` (stereo unspecified), which Potency is on record?
**A.** inactive

**Q.** Which Potency does the source give for `CCOP(=O)(Nc1ccc(C)cn1)OCC` here?
**A.** inactive

**Q.** With `CCC1=CC2Cc3nc4ccc(Cl)cc4c(N)c3C(C1)C2` (stereo unspecified) as the molecule, how does the Potency read?
**A.** active: 1.04 µM

**Q.** For `Cc1ccc(OCC(=O)OC2CN3CCC2CC3)cc1` (stereo unspecified), which Potency is on record?
**A.** inactive

**Q.** For `NS(=O)(=O)c1cccc(NC(=O)COC(=O)C(O)(c2ccccc2)c2ccccc2)c1`, which Potency is on record?
**A.** inactive

**Q.** For `O=P1(Nc2ccc(Br)cn2)COc2ccccc2OC1`, which Potency is on record?
**A.** inactive

**Q.** For `O=C(/C=C/c1ccccc1)OC1CN2CCC1CC2` (stereo unspecified), which Potency is on record?
**A.** inactive

**Q.** For `Cc1nn(-c2ccccc2)c2c1P(=O)(N1CCOCC1)N(C)C(c1ccccc1)=N2` (stereo unspecified), which Potency is on record?
**A.** inactive

**Q.** For `Cc1ccc(C(=O)OC2CN3CCC2CC3)cc1` (stereo unspecified), which Potency is on record?
**A.** inactive
